Experiment: in vitro
Conditions: human

Work on `CC(=O)O[C@@H]1C[C@]2(C)[C@@]3(CO)[C@H](O)C(=O)C(C)=C[C@H]3O[C@H]1[C@@]21CO1` [3-ADON, 3-acetyldeoxynivalenol] yielded a viability of 70%.

Reference: paper PMC5371851 (Toxins, 2017)
